Anti-infective test results gathered from many reports (values: NIAID ChemDB through PubChem).

Shared fields: toxicity to cultured cells; read-out: CC50

CCn: concentration that lowers growth or viability of the cells by n%.

structure | cells | method | value
Cc1cccc(-c2ccccc2OCCCCCOc2cccc(NC(N)=S)c2)c1 | Ava5-EG(delta4AB)SEAP | MTS | >1 µM
CCOC(=O)C1=C(CN2CC(F)(F)[C@@H]3[C@H]2CON3C[C@@H](F)C(C)(C)C(=O)O)NC(c2nccs2)=N[C@@]1(C)c1cccc(F)c1C | HepG2.2.15 | WST / absorbance | 25 µM
O=C1/C(=C/c2ccc(-c3cc(C(F)(F)F)ccc3Cl)o2)SC(=S)N1Cc1ccc(Cl)cc1 | BAE | MTT | 2.4 µM
O=c1cc(-c2cccc(CN3CCN(Cc4ccccc4)CC3)c2)c2cccnc2n1O | HeLa | - | <100 µM
CC(C)C[C@@H]1NC(=O)[C@H](Cc2c[nH]c3ccccc23)NC(=O)[C@@H](CCCCN)NC(=O)[C@H](CC(C)C)NC(=O)[C@H](C(C)C)NC(=O)[C@@H](CC(C)C)NC1=O | Colorectal carcinoma | MTT | >30 µM
O=c1cc(NCc2ccncc2)c2cccnc2n1O | HeLa | - | <100 µM
Cc1cc2c(c(C)c1OCC(C)C)c(=O)c(C)c(-c1ccccc1)n2C | HELA-OHIO | MTT | >5 µg/mL
CC1(C)[C@@H](O)CC[C@]2(C)[C@H]3C(=O)C=C4[C@@H]5C[C@@](C)(C(=O)OCCCBr)CC[C@]5(C)CC[C@@]4(C)[C@]3(C)CC[C@@H]12 | HepG2.2.15 | - | 160.1 µM
CC(C)C[C@@H]1NC(=O)[C@@H](CC(C)C)NC(=O)[C@H](Cc2c[nH]c3ccccc23)NC(=O)CNC(=O)[C@H](CC(N)=O)NC(=O)[C@@H](C(C)C)NC1=O | Colorectal carcinoma | MTT | >30 µM
CC1(C)[C@@H](O)CC[C@]2(C)[C@H]3C(=O)C=C4[C@@H]5C[C@@](C)(C(=O)OC6CCC6)CC[C@]5(C)CC[C@@]4(C)[C@]3(C)CC[C@@H]12 | HepG2.2.15 | - | 742 µM
CCn1c(-c2ccccn2)cc(=O)c2cc(C(C)C)ccc21 | HELA-OHIO | MTT | 68 µg/mL
O=C1NC(=NCCc2ccc(Cl)c(Cl)c2)S/C1=C\c1ccc(-c2ccc(C(=O)O)c(O)c2)o1 | MCF-7 | MTT | >100 µM
NC(=S)Nc1cccc(OCCCCCOc2ccc(C(=O)Oc3ccccc3)cc2)c1 | Ava5-EG(delta4AB)SEAP | MTS | >1 µM
COc1cc(/C=C/C(=O)O[C@H]2CC[C@]3(C)[C@H]4CC=C5[C@@H]6C[C@@](C)(C(=O)OCC(N)=O)CC[C@]6(C)CC[C@@]5(C)[C@]4(C)CC[C@H]3C2(C)C)cc(OC)c1OC | HepG2.2.15 | - | >481 µM
COc1cc2c(=O)c(C)c(-c3ccccc3)n(C)c2cc1C(C)C | HELA-OHIO | MTT | >10 µg/mL
O=C(c1cccc(-c2cc(=O)n(O)c3ncccc23)c1)N1CCCC1 | HeLa | - | <100 µM
CCOC(=O)C1=C(CN2CC(F)(F)[C@@H]3[C@H]2CON3C[C@H](OC(F)F)C(C)(C)C(=O)O)NC(c2nccs2)=N[C@H]1c1cccc(F)c1C | HepG2.2.15 | WST / absorbance | 11.9 µM
Cc1ccc2ccccc2c1OCCCCCOc1cccc(NC(N)=S)c1 | Ava5-EG(delta4AB)SEAP | MTS | >1 µM
CCOC(=O)C1=C(CN2CC(F)(F)[C@@H]3[C@H]2CON3C[C@@H](OC)C(C)(C)C(=O)O)NC(c2nc(C)cs2)=N[C@H]1c1cccc(F)c1C | HepG2.2.15 | WST / absorbance | 54 µM
O=C(O)c1ccc(-c2ccc(/C=C3\SC(=S)N(CCc4ccc(Cl)c(Cl)c4)C3=O)o2)cc1O | BAE | MTT | 86 µM
CC1(C)[C@@H](O)CC[C@]2(C)[C@H]3C(=O)C=C4[C@@H]5C[C@@](C)(C(=O)OCc6cccnc6)CC[C@]5(C)CC[C@@]4(C)[C@]3(C)CC[C@@H]12 | HepG2.2.15 | - | 321 µM
CC(C)C[C@@H]1NC(=O)[C@H](Cc2c[nH]c3ccccc23)NC(=O)[C@@H](C)NC(=O)[C@H](CCCCN)NC(=O)[C@H](C(C)C)NC(=O)[C@@H](CC(C)C)NC1=O | Colorectal carcinoma | MTT | >30 µM
O=C(CN1CCN(c2cccc(-c3cc(=O)n(O)c4ncccc34)c2)CC1)N1CCCC1 | HeLa | - | <100 µM
CC1(C)[C@@H](O)CC[C@]2(C)[C@H]3C(=O)C=C4[C@@H]5C[C@@](C)(C(=O)OCc6ccc(S(C)(=O)=O)cc6)CC[C@]5(C)CC[C@@]4(C)[C@]3(C)CC[C@@H]12 | HepG2.2.15 | - | >1030 µM
CCOC(=O)C1=C(CN2CC(F)(F)[C@H]3[C@@H]2CCN3C[C@](C)(O)C(=O)O)NC(c2nc(C)cs2)=N[C@H]1c1cccc(F)c1C | HepG2.2.15 | WST / absorbance | >50 µM
CCn1c(-c2ccccc2)c(C)c(=O)c2cc(NCC(C)C)ccc21 | HELA-OHIO | MTT | >5 µg/mL
NC(=S)Nc1cccc(OCCCCCCCOc2ccccc2)c1 | Ava5-EG(delta4AB)SEAP | MTS | >1 µM
CCOC(=O)C1=C(CN2CC(F)(F)[C@H]3[C@@H]2CCN3CC[C@@](C)(O)C(=O)O)NC(c2nccs2)=N[C@H]1c1ccc(F)c(F)c1Cl | HepG2.2.15 | WST / absorbance | 81.8 µM
CC(C)C[C@@H]1NC(=O)[C@H](Cc2c[nH]c3ccccc23)NC(=O)[C@@H](CO)NC(=O)[C@H](CC(N)=O)NC(=O)[C@H](C(C)C)NC(=O)[C@@H](CC(C)C)NC1=O | Colorectal carcinoma | MTT | >30 µM
Cc1c(-c2ccccc2)n(-c2ccc(F)cc2)c2ccc(C(C)C)cc2c1=O | HeLa S3 | MTT | >2 µg/mL
O=c1cc(NCc2cccc(CN3CCCCC3)c2)c2cccnc2n1O | HeLa | - | <100 µM
CC(C)C[C@@H]1NC(=O)[C@H](Cc2c[nH]c3ccccc23)NC(=O)[C@@H](CCCN=C(N)N)NC(=O)[C@H](CC(N)=O)NC(=O)[C@H](C(C)C)NC(=O)[C@@H](CC(C)C)NC1=O | Lung carcinoma cells | MTT | >30 µM
CCn1c(-c2cccs2)cc(=O)c2cc(C(C)C)ccc21 | HELA-OHIO | MTT | 14 µg/mL
NC(=S)Nc1ccc2c(c1)Cc1cc(NC(=O)c3ccno3)ccc1-2 | Ava5-EG(delta4AB)SEAP | MTS | >1 µM
CC[C@H](C)[C@@H]1NC(=O)[C@@H](CC(C)C)NC(=O)[C@H](CC(C)C)NC(=O)[C@H](Cc2c[nH]c3ccccc23)NC(=O)CNC(=O)[C@H](CC(N)=O)NC1=O | Lung carcinoma cells | MTT | >30 µM
CCNC(=S)Nc1cccc(OCCCCCc2ccccc2)c1 | Ava5-EG(delta4AB)SEAP | MTS | >1 µM
CCOC(=O)C1=C(CN2CC(F)(F)[C@H]3[C@@H]2CCN3CC[C@](C)(O)C(=O)O)NC(c2nccs2)=N[C@H]1c1cccc(F)c1C | HepG2.2.15 | WST / absorbance | >100 µM
CCn1c2c(c(=O)c3cc(C(C)C)ccc31)Cc1c-2ccn1C | HELA-OHIO | MTT | >10 µg/mL
O=c1c(-c2ccccc2)c(O)c2cccnc2n1O | HeLa | - | <100 µM
CC(C)C[C@@H]1NC(=O)[C@H](Cc2c[nH]c3ccccc23)NC(=O)CNC(=O)[C@H](CC(N)=O)NC(=O)[C@H](C(C)C)NC(=O)[C@H](CC(C)C)NC1=O | Colorectal carcinoma | MTT | >30 µM
CCOC(=O)c1cnc2c(c1)c(O)c(C(=O)NCc1ccccc1)c(=O)n2O | HeLa | - | <100 µM
CC1(C)[C@@H](O)CC[C@]2(C)[C@H]3CC=C4[C@@H]5C[C@@](C)(C(=O)OCC(N)=O)CC[C@]5(C)CC[C@@]4(C)[C@]3(C)CC[C@@H]12 | HepG2.2.15 | - | 472 µM
Cc1ccc(-n2c(-c3ccccc3)c(C)c(=O)c3cc(C(C)C)ccc32)cc1 | HeLa S3 | MTT | >2.5 µg/mL
CCCCc1c(O)c2cccnc2n(O)c1=O | HeLa | - | <100 µM

Repeating the final 2 entries:

structure	cells	method	value
Cc1ccc(-n2c(-c3ccccc3)c(C)c(=O)c3cc(C(C)C)ccc32)cc1	HeLa S3	MTT	>2.5 µg/mL
CCCCc1c(O)c2cccnc2n(O)c1=O	HeLa	-	<100 µM

Neighbouring rows are from separate reports. Blank or dashed fields: not listed here.